Data reported in publication PMC6723587 (Toxins, 2019).
Values joined by “and” are separate entries in the source; they are usually repeats but may differ in a detail not shown here. Identical values can stand only once. Like-named read-outs stand apart in the source and are kept apart here.

Columns and labels:
[1] = one human volunteer; cited from earlier work
[2] = Metabolic study in one human volunteer on a diet naturally contaminated with DON, urinary excretion; conditions: worked out from the data of ref 7
[3] = for Ke (excretion rate constant): model II, fixed effects, single oral dose DON3G 1 µg/kg bw; for RDF (reversed dosimetry factor): intake / cumulative excreted amount of the substance, 24 h urine
[4] = for Ke (excretion rate constant): model I, fixed effects, single oral dose DON 1 µg/kg bw; for RDF (reversed dosimetry factor): intake / cumulative excreted amount of the substance, 24 h urine
[5] = based on cumulated excretion of the substance
[6] = after 24 h, single dose of DON3G

DON-3-glucuronide
part of total DON-glucuronides [1]: 27%
RDF, roughly, extrapolated from Warth et al. [2]: 7.2
Ke (excretion rate constant) [3]: 0.49
RDF (reversed dosimetry factor) ([3]; single dose of DON3G): 11.21
Ke (excretion rate constant) [4]: 1.28
RDF (reversed dosimetry factor) ([4]; single dose of DON): 12.6

DON-15-glucuronide
formation relative to DON-3-GlcA [1]: about threefold more efficiently formed
part of total DON-glucuronides [1]: 73%
RDF, roughly, extrapolated from Warth et al. [2]: 2.7
ratio DON-15-GlcA/DON, cumulative amount in urine [3, 6]: 2.2
ratio DON-15-GlcA/DON-3-GlcA, cumulative amount in urine [3, 6]: 3.0
Ke (excretion rate constant) [3]: 0.49
RDF (reversed dosimetry factor) ([3]; single dose of DON3G): 3.4
RDF (reversed dosimetry factor) ([3]; single dose of DON3G, listed as DON-15-GLcA): 3.37
proposed RDF for exposure to a mixture of DON and DON3G (ratio unknown) [5]: 3
ratio DON-15-GlcA/DON, cumulative amount in urine ([4]; after 24 h, single dose of DON): 2.6
ratio DON-15-GlcA/DON-3-GlcA, cumulative amount in urine ([4]; after 24 h, single dose of DON): 4.5
Ke (excretion rate constant) [4]: 2.31
RDF (reversed dosimetry factor) ([4]; single dose of DON): 2.7 and 2.67
